IC50 data for one substance are collected here from patent US9949945B2, “3′ equatorial-fluorine-substituted neuraminidase inhibitor compounds, compositions and methods for the use thereof as anti-virals” (THE UNIVERSITY OF BRITISH COLUMBIA, priority 2012, dated 2018).

Type in all cases: biochemical
Assay [1] deals with Auckland pH1N1 wt (A/Auckland/3/2009) NA (Influenza A virus, UniProt C3W5S3).
A further assay concerns the target A/Fukui H3N2 wt NA (Influenza A virus, UniProt A0A0F6NYK2). Conditions: read-out: IC50 in the enzyme inhibition assay, A/Fukui H3N2.
In assay [2] the target is B/Florida wt (B/Florida/4/2006) NA (Influenza B virus, UniProt J7JZT1).

Consider Zanamivir, for which the results for the IC50 (in assay [1]; on A/Fukui H3N2 wt NA; in assay [2]) were 0.6 nM, 3.8 nM and 3.9 nM, respectively.
